In publication PMC10575921 (2023):

Assays:
[1] = test system: human primary hepatocytes; conditions: primary hepatocyte cytotoxicity; 0.206 μM
[2] = test system: bone marrow of Sprague Dawley (SD) rats; conditions: male, rat

SMILES	% of vehicle control [1]	in vivo micronucleus test result [2]
CC/C(=C(\c1ccccc1)c1ccc(OCCN(C)C)cc1)c1ccccc1 [Tamoxifen]	100.25% and 99.17%	–
CC(C)(C)[C@H](NC(=O)C(F)(F)F)C(=O)N1CC2(C[C@H]1C(=O)N[C@H](C#N)C[C@@H]1CCNC1=O)SCCS2 [compound 9, simnotrelvir]	–	negative

Several values for one entry are separate records, joined by “and”; a condition that tells them apart may be missing. Identical values can stand only once.
